Anti-infective test results gathered from many reports (values: NIAID ChemDB through PubChem).

All rows: growth or infection tests; species: HIV-1

ECn: concentration that inhibits the pathogen or its effect by n%. a–b is a range or a potency band. Lines come from different laboratories, so protocols vary. An empty or dashed field is not shown.

structure	setting	method	cells	endpoint	changes	strain	result
N#C[C@]1(CO)O[C@@H](n2cnc3c(=O)[nH]cnc32)C[C@@H]1O		cytopathic effect / MTT		EC50		LAI	0.0278 µM
Nc1c(C(=O)NCc2ccc(F)cc2F)c(=O)n(O)c2ncc(CCCCCCO)cc12		luciferase	HOS	EC50	+G insertion (GGGGAGT)		<0.001 µM
CC(C)OC(=O)c1cc(NC(=S)OC(C)C)ccc1Cl		syncytia	CEM	EC50		IIIB	0.029 µM
CCN1c2ncc(CCOc3ccc(C(=O)Nc4ccc(CC(=O)O)cc4)cc3C)cc2C(=O)N(C)c2cccnc21		p24	C8166	EC50	RT-K103N Y181C		0.01–0.05 µM
O=S(=O)(c1cccc2cnccc12)N1CCNCC1		p24 / ELISA	MOLT-4/IIIB + MOLT-4	EC50		IIIB	>13.7 µg/mL
Cc1ccc(C)n1-c1ccc(C(=O)O)c(O)c1		p24	MT-2	EC90		AZT-resistant X4 CLADE B	15.07 µM
Cn1c2ccccc2c(=O)c2ccccc21		p24 / ELISA	OM-10.1	EC50		IIIB	4.9 µg/mL
COC(=O)N[C@H](C(=O)N[C@@H](Cc1ccccc1)C[C@H](O)[C@H](Cc1ccc(-c2cccc(N)c2)cc1)NC[C@@H](NC(=O)OC)C(C)(C)C)C(C)(C)C	50% human serum	MTT	MT-4	EC50		pNL4-3	20 nM
Cc1ccc(NC(=O)CSc2nnc(C)n2-c2ccc(F)cc2)c(Cl)c1		luciferase	HeLa + HeLa-JC53	EC50	RT-K103N Y181C	NL4-3	>10 µM
COC(=O)N[C@H](C(=O)N[C@@H](Cc1ccccc1)C[C@H](O)[C@H](Cc1ccc(-c2cccnc2)cc1)NC[C@@H](NC(=O)OC)C(C)(C)C)C(C)(C)C		MTT	MT-4	EC50		pNL4-3	11 nM
CCN1c2ncc(CCOc3ccc(-c4ccc(CC(=O)O)cc4)cc3C)cc2C(=O)Nc2c(C)ccnc21		p24	C8166	EC50	RT-K103N Y181C		0.01–0.05 µM
Cc1cc(C)c(CS(=O)c2cccc[n+]2[O-])c(C)c1		cytopathic effect / MTT	C8166	EC50		IIIB	>40 µg/mL
CCCCCCCCCCCCCCCCOP(=O)(OC[C@H]1OC(O)[C@@H](O)[C@@H](O)[C@@H]1O)OC[C@H]1O[C@@H](n2cc(C)c(=O)[nH]c2=O)C[C@@H]1N=[N+]=[N-]	15 d	RT activity	CEM	EC50		LAV-Bru	<0.2 µM
Cc1ccc(C)c(Cn2c(Sc3ccccc3)cc(=O)[nH]c2=O)c1		MTT	MT-4	EC50		NL4-3	1.26 µg/mL
C[C@@H]1CCO[C@H]2Cn3cc(C(=O)NCc4ccc(F)cc4F)c(=O)c(O)c3C(=O)N12		RT activity	CBMC	EC50	M50I/R263K	NL4-3	0.0023 µM
CC(C)=CCC[C@]1(C)C=Cc2c(ccc3c2C(=O)C(O)=C(C2=C(C4=C(O)C(=O)c5c(ccc6c5C=C[C@@](C)(CCC=C(C)C)O6)C4=O)C(=O)c4c(ccc5c4C=C[C@@](C)(CCC=C(C)C)O5)C2=O)C3=O)O1		syncytia	MT-4	EC50		RF	0.008 µM
COc1ccc(S(=O)(=O)NC(Cc2ccccc2)c2nnc(Nc3ccc(Br)cc3)s2)cc1		MTT	MT-4	EC50		IIIB	>1.98 µM
CCCCCCCCCCCCCCCCOP(=O)(OCCO[C@@H]1O[C@H](CO)[C@@H](O)[C@H](O)[C@@H]1O)OC[C@H]1O[C@@H](n2cc(C)c(=O)[nH]c2=O)C[C@@H]1N=[N+]=[N-]	11 d	RT activity	U-937	EC50		LAV-Bru	>1 µM
Cc1ccc2c(C)ccc(-n3c(C)nnc3SCC(=O)Nc3ccc(S(N)(=O)=O)cc3Cl)c2n1		luciferase	HeLa + HeLa-JC53	EC50	RT-Y188L	NL4-3	0.015 µM
Cc1ccc(S(=O)(=O)NC(c2nnc(Nc3ccc(Br)cc3)s2)C(C)C)cc1		MTT	MT-4	EC50		IIIB	>6.49 µM
CCc1ccc(-n2c(C)nnc2SCC(=O)Nc2ccc(C)cc2Cl)cc1		luciferase	HeLa + HeLa-JC53	EC50	RT-K103N Y181C	NL4-3	0.06 µM
N#C[C@]1(CO)O[C@@H](n2cnc3c(=O)[nH]c(N)nc32)C[C@@H]1O		cytopathic effect / MTT		EC50		LAI	<0.03 µM
COc1ccc(-n2c(C)nnc2SCC(=O)Nc2ccc(S(N)(=O)=O)cc2Cl)c2ccccc12		luciferase	HeLa + HeLa-JC53	EC50	RT-Y188L	NL4-3	0.11 µM
CC(C)c1ccc(CS(=O)(=O)c2cccc[n+]2[O-])cc1		β-galactosidase	MAGI	EC50		IIIB	4 µg/mL
COc1ccc(Nc2nnc(C(NS(=O)(=O)c3ccc(Cl)cc3)C(C)C)s2)cc1		MTT	MT-4	EC50		IIIB	>10.08 µM
C[C@H]1CO[C@@H]2Cn3cc(C(=O)NCc4ccc(F)cc4F)c(=O)c(O)c3C(=O)N12		luciferase	HOS	EC50	+G insertion (GGGGAGT)		<0.001 µM
COc1ccc(S(=O)(=O)NC(Cc2ccccc2)c2nnc(Nc3ccc(F)cc3)s2)cc1		MTT	MT-4	EC50		IIIB	>2.04 µM
CCCCCCCCCCCCCCCCCCOCCOP(=O)(O)CO[C@H](CO)Cn1cnc2c(N)ncnc21		p24 / ELISA	PBMC	EC50	M41L D67N K70R T215Y K219Q	NRTI-MDR	0.005 µM
Cc1ccc(S(=O)(=O)NC(C)c2nnc(Nc3ccc(F)cc3)s2)cc1		MTT	MT-4	EC50		IIIB	>71.85 µM
CCCCCCCC/C=C\CCCCCCCCOP(=O)([O-])OCC[NH2+]C		antigen	C8166	EC50			10 µM
Nc1c(C(=O)NCc2ccc(F)cc2F)c(=O)n(O)c2ncc(CCS(=O)(=O)c3ccccc3)cc12		luciferase	HOS	EC50	+G insertion (GGGGAGT)		<0.001 µM
COc1ccc(-n2c(SCC(=O)Nc3ccc(S(N)(=O)=O)cc3Cl)nnc2C(F)(F)F)c2ccccc12		luciferase	HeLa + HeLa-JC53	EC50	RT-Y188L	NL4-3	0.014 µM
CCCCCCCCCCCCCCCCCCOCCOP(=O)(O)CO[C@H](CO)Cn1cnc2c(=O)[nH]c(N)nc21		p24 / ELISA	PBMC	EC50	M41L D67N K70R T215Y K219Q	NRTI-MDR	0.005 µM
C[C@@H]1CCO[C@H]2Cn3cc(C(=O)NCc4ccc(F)cc4F)c(=O)c(O)c3C(=O)N12		luciferase	HOS	EC50	AGC (GGGAGC)		<0.003 µM
Cc1ccc(OCCn2ccc(=O)[nH]c2=O)c(Cc2ccccc2)c1				EC50	Y181C		0.24 µM
Cc1ccc(C)c(CS(=O)c2ccc(Cl)c[n+]2[O-])c1		syncytia	CEM	EC50	RT-Y181C	IIIB	9.4 µg/mL
CCN1c2ncc(CCOc3ccc(NC(=O)CC4(C(=O)O)CCCC4)cc3C)cc2C(=O)N(C)c2cccnc21		p24	C8166	EC50		IIIB	<0.01 µM
COC(=O)N[C@H](C(=O)N[C@@H](Cc1ccccc1)C[C@H](O)[C@H](Cc1ccc(-c2ccc(N)cc2)cc1)NC[C@@H](NC(=O)OC)C(C)(C)C)C(C)(C)C	50% human serum	MTT	MT-4	EC50		pNL4-3	38 nM
CC(C)=CCOc1cc(NC(=S)c2ccoc2C)ccc1Cl		syncytia	CEM	EC50	RT-V179D	IIIB	0.017 µM
c1ccc2nc3ccccc3cc2c1		MTT	ACH2	EC50		Latently infected cell	>50 µM
CC(C)C(NS(=O)(=O)c1ccc(Br)cc1)c1nnc(Nc2ccc(Br)cc2)s1		MTT	MT-4	EC50		IIIB	>2.31 µM
COC(=O)N[C@H](C(=O)N[C@@H](Cc1ccccc1)C[C@H](O)[C@H](Cc1ccc(-c2ccc(O)cc2)cc1)NC[C@@H](NC(=O)OC)C(C)(C)C)C(C)(C)C		MTT	MT-4	EC50		pNL4-3	13 nM
CCOCn1c(Sc2c(Cl)cccc2Cl)cc(=O)[nH]c1=O		MTT	MT-4	EC50		NL4-3	>1.7 µg/mL
CC(C)C(NS(=O)(=O)c1ccc(Br)cc1)c1nnc(Nc2ccc(F)cc2)s1		MTT	MT-4	EC50		IIIB	>10.08 µM
Cc1cc(S(N)(=O)=O)ccc1NC(=O)COc1ccc(Cl)cc1C(=O)c1cc(F)cc(C(F)(F)F)c1		luciferase	HELA MAGI	EC50	RT-V106I	IIIB	0.0025 µM
CC1(C)CC(NC(=O)C(=O)Nc2ccc(Cl)cc2)CC(C)(C)N1		p24	MT-2	EC50		V32	5.28 µM
CNC(=O)c1ccc(-c2ccc(C[C@H](NC[C@@H](NC(=O)OC)C(C)(C)C)[C@@H](O)C[C@H](Cc3ccccc3)NC(=O)[C@@H](NC(=O)OC)C(C)(C)C)cc2)cc1		MTT	MT-4	EC50		pNL4-3	4 nM
Cc1ccc(S(=O)(=O)NC(C)c2nnc(Nc3ccc(Br)cc3)s2)cc1		MTT	MT-4	EC50		IIIB	>8.09 µM
COc1cc2c(cc1Cc1cccc(Cl)c1F)c(=O)c(C(=O)O)cn2[C@H](CO)C(C)C		RT activity	PM1	EC50	G118R/E138K	NL4-3	0.0025 µM
CCCCCCCCCCCCCCCCCCOCCOP(=O)(O)CO[C@H](CO)Cn1ccc(N)nc1=O		p24 / ELISA	PBMC	EC50	V75I F77L F116Y Q151M	NRTI-MDR	0.027 µM
COC(=O)N[C@H](C(=O)N[C@@H](Cc1ccccc1)C[C@H](O)[C@H](Cc1ccc(-c2ccc(CO)nc2)cc1)NC[C@@H](NC(=O)OC)C(C)(C)C)C(C)(C)C		MTT	MT-4	EC50		pNL4-3	14 nM
CCCCCCOP(=O)([O-])OCC[NH2+]C		antigen	C8166	EC50			>100 µM
CCN1c2ncc(CCOc3ccc(-c4ccc(CC(=O)O)cc4F)cc3C)cc2C(=O)N(C)c2cccnc21		p24	C8166	EC50	RT-K103N Y181C		0.01–0.05 µM
Nc1c2ccccc2nc2ccccc12			CEM	EC50			>50 µM
COC(=O)N[C@H](C(=O)N[C@@H](Cc1ccccc1)C[C@H](O)[C@H](Cc1ccc(-c2ccccc2)cc1)NC[C@@H](NC(=O)OC)C(C)(C)C)C(C)(C)C	50% human serum	MTT	MT-4	EC50		pNL4-3	95 nM
Cc1ccc2c(C)cccc2c1-n1c(C)nnc1SCC(=O)Nc1ccccc1Br		luciferase	HeLa + HeLa-JC53	EC50	RT-Y188L	NL4-3	0.33 µM
Cc1cn([C@H]2C[C@H](N=[N+]=[N-])[C@@H](COP(=O)(O)OCCO[C@H]3O[C@H](CO)[C@@H](O)[C@H](O)[C@@H]3O)O2)c(=O)[nH]c1=O	7 d	RT activity	CEM	EC50		LAV-Bru	<0.2 µM
Cn1c2ccccc2c(=O)c2c(O)cccc21		cytopathic effect / MTT	MT-4	EC50		IIIB	>15 µg/mL
CC(C)CN(C[C@@H](O)[C@H](Cc1ccccc1)NC(=O)O[C@H]1CO[C@H]2OCC[C@H]21)S(=O)(=O)c1ccc2nc(NC3CCN(C4CCCC4)CC3)sc2c1		reporter gene	MT-4	EC50	R41T K70E V77I/V	T14434	85 nM

The last 7 rows once more:

structure,setting,method,cells,endpoint,changes,strain,result
CCN1c2ncc(CCOc3ccc(-c4ccc(CC(=O)O)cc4F)cc3C)cc2C(=O)N(C)c2cccnc21,,p24,C8166,EC50,RT-K103N Y181C,,0.01–0.05 µM
Nc1c2ccccc2nc2ccccc12,,,CEM,EC50,,,>50 µM
COC(=O)N[C@H](C(=O)N[C@@H](Cc1ccccc1)C[C@H](O)[C@H](Cc1ccc(-c2ccccc2)cc1)NC[C@@H](NC(=O)OC)C(C)(C)C)C(C)(C)C,50% human serum,MTT,MT-4,EC50,,pNL4-3,95 nM
Cc1ccc2c(C)cccc2c1-n1c(C)nnc1SCC(=O)Nc1ccccc1Br,,luciferase,HeLa + HeLa-JC53,EC50,RT-Y188L,NL4-3,0.33 µM
Cc1cn([C@H]2C[C@H](N=[N+]=[N-])[C@@H](COP(=O)(O)OCCO[C@H]3O[C@H](CO)[C@@H](O)[C@H](O)[C@@H]3O)O2)c(=O)[nH]c1=O,7 d,RT activity,CEM,EC50,,LAV-Bru,<0.2 µM
Cn1c2ccccc2c(=O)c2c(O)cccc21,,cytopathic effect / MTT,MT-4,EC50,,IIIB,>15 µg/mL
CC(C)CN(C[C@@H](O)[C@H](Cc1ccccc1)NC(=O)O[C@H]1CO[C@H]2OCC[C@H]21)S(=O)(=O)c1ccc2nc(NC3CCN(C4CCCC4)CC3)sc2c1,,reporter gene,MT-4,EC50,R41T K70E V77I/V,T14434,85 nM